Measurements published in patent US20230357367A1 (GENERATE BIOMEDICINES, published 2023).

B1: Reference Antibody (antibody, V domains shown)
VH: EVQLVESGAEVKKPGESLKISCKGSGYTFTRYWIGWVRQMPGKGLEWMGIIYPGDSDTRYSPSFQGHVTISADKSISTAYLQWNSLKASDTAMYYCARLPQYCSNGVCQRWFDPWGQGTLVTVSS
VL: EIVLTQSPSSVSASVGDRVTITCRASQGISSWLAWYQQKPGKAPKLLIYAASSLQSGVPSRFSGSGSGTDFTLTISSLQPEDFATYYCQQGNSFPYTFGQGTNLEIK
B2: Reference Antibody Fab (Fab, V domains shown)
VH: B1 VH
VL: B1 VL

Legend:
[1] = target: WIV1 spike trimer (recombinant, in-house production) (WIV1 (bat SARS-like coronavirus)); assay: DELFIA, IgG titrated on coated spike trimer
[2] = target: T1, SARS-CoV-2 XBB.1.5 spike trimer (recombinant) (SARS-CoV-2); assay: SPR, Fab over anti-His-captured trimer, 37 C
[3] = target: T2, SARS-CoV-2 BA.4 spike trimer (recombinant) (SARS-CoV-2); assay: SPR, Fab over anti-His-captured trimer, 37 C
[4] = target: T3, SARS-CoV-2 BA.2 (parent) spike trimer (recombinant, in-house production) (SARS-CoV-2); assay: SPR, Fab over anti-His-captured trimer, 37 C
[5] = target: T4, SARS-CoV-2 BA.2+P1162S spike trimer (recombinant, in-house production) (SARS-CoV-2); assay: SPR, Fab over anti-His-captured trimer, 37 C
[6] = target: T5, SARS-CoV-2 BA.2+P1162L spike trimer (recombinant, in-house production) (SARS-CoV-2); assay: SPR, Fab over anti-His-captured trimer, 37 C
[7] = target: T6, SARS-CoV-2 BQ.1.1 spike trimer (recombinant) (SARS-CoV-2); assay: SPR, Fab over anti-His-captured trimer, 37 C
[8] = target: T7, SARS-CoV-2 BA.5 spike trimer (recombinant) (SARS-CoV-2); assay: SPR, Fab over anti-His-captured trimer, 37 C
[9] = target: T1, SARS-CoV-2 XBB.1.5 spike trimer …; assay: SPR, Fab over anti-His-captured trimer, 25 C
[10] = target: T2, SARS-CoV-2 BA.4 spike trimer …; assay: SPR, Fab over anti-His-captured trimer, 25 C
[11] = target: T3, SARS-CoV-2 BA.2 (parent) spike trimer …; assay: SPR, Fab over anti-His-captured trimer, 25 C
[12] = target: T4, SARS-CoV-2 BA.2+P1162S spike trimer …; assay: SPR, Fab over anti-His-captured trimer, 25 C
[13] = target: T5, SARS-CoV-2 BA.2+P1162L spike trimer …; assay: SPR, Fab over anti-His-captured trimer, 25 C
[14] = target: T6, SARS-CoV-2 BQ.1.1 spike trimer …; assay: SPR, Fab over anti-His-captured trimer, 25 C
[15] = target: T7, SARS-CoV-2 BA.5 spike trimer …; assay: SPR, Fab over anti-His-captured trimer, 25 C

Binder | EC50 [1] | Kd [2] | Kd [3] | Kd [4] | Kd [5] | Kd [6] | Kd [7] | Kd [8] | Kd [9] | Kd [10] | Kd [11] | Kd [12] | Kd [13] | Kd [14] | Kd [15]
B1 | 0.076 µg/mL | – | – | – | – | – | – | – | – | – | – | – | – | – | –
B2 | – | 39.8 nM | 37.4 nM | 146 nM | 150 nM | 201 nM | 43.7 nM | 45.9 nM | 18.8 nM | 19 nM | 85.8 nM | 78 nM | 113 nM | 22 nM | 15.6 nM
